Measured values from several laboratories, pooled; numbers as filed in NIAID ChemDB.

All rows: whole-cell or culture tests; organism: Coxsackie virus

ECn: concentration that inhibits the pathogen or its effect by n%. Blank or dashed fields: not listed here. Rows are shuffled and stem from different studies.

compound,strain or isolate,endpoint,cell line,read by,value
CC=NC(=N)c1nc(-c2ccc(OC)cc2)n(COCCO)n1,TYPE B4,EC50,HeLa,cytopathic effect,>200 µg/mL
OC[C@H]1O[C@@H](c2cncc(Br)c2)[C@@H](O)[C@@H]1O,TYPE B4,EC50,VERO,cytopathic effect,≥100 µg/mL
CC1(CO)CCC(Cn2cnc3c(N)nc(N)nc32)C1(C)C,TYPE B4,EC50,HeLa,cytopathic effect,40 µg/mL
COc1ccc(-n2c(-c3ccccc3)c(C)c(=O)c3cc(C(C)C)ccc32)cc1,TYPE B4/JVB,EC50,HeLa S3,cytopathic effect,>2.5 µg/mL
NC1CSCCN2CCc3c([nH]c4ccccc34)[C@H]12,TYPE B4,EC50,HeLa,cytopathic effect,20 µg/mL
C[C@@]1(O)[C@@H](CO)O[C@@H](n2cnc3c(N)ncnc32)[C@@H]1O,TYPE B4,EC50,VERO,cytopathic effect,>100 µg/mL
Nc1nccc2c1ncn2[C@@H]1CC[C@@H](O)[C@H]1O,TYPE B4,MIC,-,-,>200 µg/mL
CS(=O)(=O)c1ccc(Cc2ccc(S(C)(=O)=O)cn2)cc1,TYPE A21,EC50,HeLa,cytopathic effect,>10 µg/mL
CCc1nc(CC(=O)NN=C(C)C)nn1CC,B4,MIC,-,-,>400 µg/mL
Cc1cn([C@@H]2OC[C@H](CO)[C@H]2N=[N+]=[N-])c(=O)[nH]c1=O,TYPE B4,EC50,VERO,cytopathic effect,>80 µg/mL
OC[C@H]1CC(n2cnc3c(NC4CC4)ncnc32)C[C@@H]1CO,B4,EC50,VERO,-,>100 µg/mL
COC(=O)[C@]1(C)CCC[C@]2(C)c3ccc4nc5c(nc4c3CCC12)CCCC5,TYPE B4,EC50,HeLa,plaque count,>4 µg/mL
Cc1ccn2c(C(SCCc3ccccc3)SCCc3ccccc3)cnc2c1,TYPE B4,EC50,VERO,-,>1000 µM
CCc1nc(-c2ccc(OCCC(C)CCN3CCN(c4ccncc4)C3=O)cc2)no1,B3,EC50,RD,cytopathic effect,25 µM
Cc1ccc(C(=O)CCCCOc2ccc(C3=NC(C)CO3)cc2)s1,TYPE B2,EC50,VERO,cytopathic effect,3.08 µM
N#Cc1cncc([C@H]2O[C@H](CO)[C@H](O)[C@@H]2O)c1,TYPE B4,EC50,HeLa,cytopathic effect,≥100 µg/mL
C=C[C@@](CO)(CCn1cnc2c(N)ncnc21)c1ccccc1,TYPE B3,EC50,-,-,>100 µg/mL
NNC(=O)Cc1nc2n(n1)CCCCC2,B4,MIC,-,-,>400 µg/mL
NC1CSCON2CCc3c([nH]c4ccccc34)[C@H]12,TYPE B4,EC50,VERO,cytopathic effect,0.4 µg/mL
Cc1nc(N2CC[N+]3(CC2)CC[N+]2(CCNCC2)CC3)c([N+](=O)[O-])c(N2CC[N+]3(CC2)CC[N+]2(CCNCC2)CC3)n1,B3,EC50,HeLa,cytopathic effect,>70 µg/mL
CCOC(=O)c1ccc(OCCOc2ccc(-c3snc(SC)c3C#N)cc2)cc1,TYPE B1,EC50,HEP-2/L-929/VERO,plaque count,>2 µM
N#Cc1cc([N+](=O)[O-])ccc1Oc1ccc(Cl)c(Cl)c1,TYPE B4,EC50,HeLa,cytopathic effect,1.5 µg/mL
Nc1nc(F)nc2c1ncn2[C@@H]1C=C(CO)[C@@H](O)[C@H]1O,TYPE B4,EC50,HeLa,cytopathic effect,≥100 µg/mL
O=c1[nH]c(=O)n([C@@H]2C[C@H](CO)C[C@H]2CO)cc1I,B4,EC50,VERO,-,>100 µg/mL
Cc1nc(Cc2n[nH]c(=S)n2-c2ccccc2)nn1C,B4,MIC,-,-,80 µg/mL
Nc1nccc2c1ncn2[C@@H]1C=C(CO)[C@@H](O)[C@H]1O,TYPE B4,MIC,-,-,>400 µg/mL
OC[C@H]1O[C@H](c2cncc(Br)c2)[C@@H](O)[C@H]1O,TYPE B4,EC50,VERO,cytopathic effect,≥100 µg/mL
COC(=O)[C@]1(C)CCC[C@]2(C)c3cc(Br)c4nc(C)[nH]c4c3CCC12,TYPE B4,EC50,HeLa,plaque count,>4 µg/mL
Cc1ccc(C(=O)CCCCOc2ccc(C3=NC(C)(C)CO3)cc2)s1,TYPE B2,EC50,VERO,cytopathic effect,19.67 µM
CS(=O)(=O)c1ccc(Cc2ccc(Cl)c(Cl)c2)nc1,TYPE A21,EC50,HeLa,cytopathic effect,5 µg/mL
Nc1ncnc2c1ncn2C1CC(COP(=O)(O)O)[C@@H](O)[C@H]1O,TYPE B4,EC50,HeLa,cytopathic effect,>10 µg/mL
Nc1ncnc2c1ncn2[C@@H]1C=C(CF)[C@H](O)[C@H]1O,TYPE B4,EC50,HeLa,cytopathic effect,>200 µg/mL
CCn1c(-c2cccc(F)c2)c(C)c(=O)c2cc(C(C)C)ccc21,TYPE A7,EC50,HeLa S3,cytopathic effect,>4 µg/mL
Nc1nc2c(ncn2[C@H]2CO[C@@H](CO)C2)c(=O)[nH]1,TYPE B4,EC50,HeLa,cytopathic effect,>200 µg/mL
Cc1cn([C@H]2O[C@H](CO)[C@@H](N=[N+]=[N-])[C@H]2F)c(=O)nc1N,TYPE B4,EC50,VERO B,cytopathic effect,>400 µg/mL
C1C[N+]2(CCN1)CC[N+]1(CCNCC1)CC2,B3,EC50,HeLa,cytopathic effect,>70 µg/mL
CN=C(c1ccccc1)c1ccc2nc(N)n(S(=O)(=O)C(C)C)c2c1,TYPE A21,EC50,HeLa,cytopathic effect / XTT,0.05 µg/mL
Cc1nc(N2CC[N+]3(CC2)CC[N+]2(CCN(c4nc(C)[nH]c(=O)c4[N+](=O)[O-])CC2)CC3)c([N+](=O)[O-])c(=O)[nH]1,B3,EC50,HeLa,cytopathic effect,>70 µg/mL
C=CCc1nc(C)n2c(=O)[nH]c(NC(C)=O)nc12,TYPE B4,EC50,HeLa,cytopathic effect,>400 µg/mL
CS(=O)(=O)c1ccc(NCCc2ccc(Cl)cc2)nc1,TYPE A21,EC50,HeLa,cytopathic effect,>10 µg/mL
C=C(N=CC)c1nc(-c2ccc(OC)cc2)n(C2O[C@H](CO)[C@@H](O)[C@H](O)[C@H]2O)n1,TYPE B4,EC50,VERO,cytopathic effect,>200 µg/mL
Cn1cc(CCCCOc2ccc(C(=O)O)cc2)cc1C=O,-,EC50,VERO,plaque count,>380 µM
CC(C)S(=O)(=O)c1ccc(Cc2ccc(Cl)c(Cl)c2)nc1,TYPE A21,EC50,HeLa,cytopathic effect,0.6 µg/mL
Cc1ccc(C(=O)CCCCCCOc2ccc(C3=NCCO3)cc2Cl)s1,TYPE B5,EC50,VERO,cytopathic effect,13.74 µM
Nc1ncnc2c1ncn2[C@H]1OC[C@@H](CO)C1O,TYPE B4,EC50,VERO,cytopathic effect,>80 µg/mL
CCC(Sc1ncnc2c1cnn2COCCO)C(N)=O,TYPE B4,EC50,VERO,cytopathic effect,>400 µg/mL
CSc1nsc(-c2ccc(OCCOc3ccccc3)cc2)c1C#N,TYPE B1,EC50,HEP-2/L-929/VERO,plaque count,>20 µM
Nc1ccn([C@@H]2OC[C@H](CO)[C@H]2O)c(=O)n1,TYPE B4,EC50,VERO,cytopathic effect,>80 µg/mL
Cc1cn([C@@H]2O[C@H](CO)[C@](O)(C(F)(F)F)[C@H]2O)c(=O)[nH]c1=O,B4,EC50,VERO,cytopathic effect,>200 µg/mL
[N-]=[N+]=N[C@H]1[C@@H](F)[C@H](N2C=CC(N)NC2=O)O[C@@H]1CO,TYPE B4,EC50,VERO B,cytopathic effect,>400 µg/mL
CSc1nsc(-c2ccc(OCCCCOc3ccc(C#N)cc3)cc2)c1C#N,TYPE B1,EC50,HEP-2/L-929/VERO,plaque count,>2 µM
Cc1ccn2c(C3OCCO3)cnc2c1,TYPE B4,EC50,VERO,-,>1000 µM
Cc1c(-c2ccccc2)n(-c2ccc(F)cc2)c2ccc(C(C)C)cc2c1=O,TYPE B4/JVB,EC50,HeLa S3,cytopathic effect,>2 µg/mL
CC(Sc1ncnc2c1cnn2COCC(O)CO)C(N)=O,TYPE B4,EC50,VERO,cytopathic effect,>400 µg/mL
Nc1ccn([C@@H]2C=C(CO)[C@@H](O)[C@H]2O)c(=O)n1,TYPE B4,EC50,HeLa,cytopathic effect,0.2 µg/mL
CCOc1cc(O)c(C(=O)/C=C/c2ccc(OC)cc2)c(OC)c1,TYPE A21,EC50,HeLa,cytopathic effect,>3 µg/mL
C=C(N=CC)c1nc(-c2cccc(C)c2)n([C@@H]2O[C@H](CO)[C@@H](O)[C@H]2O)n1,TYPE B4,EC50,HeLa,cytopathic effect,>200 µg/mL
Cc1cc(CCCCCOc2c(Cl)cc(C3=NCCO3)cc2Cl)on1,B-2,EC50,RD-2,plaque count,0.007 µg/mL
C=CCc1nc(C)n2c(=O)[nH]c(=S)[nH]c12,TYPE B4,EC50,HeLa,cytopathic effect,>200 µg/mL
CC(Sc1ncnc2c1cnn2COCCO)C(N)=O,TYPE B4,EC50,VERO,cytopathic effect,>400 µg/mL
CCn1nc(-c2ccc(Cn3ccc4ccccc43)cc2)nc1C,B4,MIC,-,-,80 µg/mL
CC1(CO)CCC(Cn2cnc3c(=O)[nH]c(N)nc32)C1(C)C,TYPE B4,EC50,HeLa,cytopathic effect,>400 µg/mL
CCCCCCCCCCc1nccn(C(CO)OC(CO)CO)c1=O,TYPE B4,EC50,MRC-5,cytopathic effect,>100 µM
OCCSCc1c(-c2ccccc2)nc2ccccn12,B4,EC50,VERO,cytopathic effect,>70 µg/mL
CCCOc1ccc2c(c1)c(=O)c(C)c(-c1ccccc1)n2CC,TYPE B4/JVB,EC50,HeLa S3,cytopathic effect,>3.3 µg/mL
Nc1nc2c(ccn2[C@H]2CO[C@@H](CO)C2)c(=O)[nH]1,TYPE B4,EC50,VERO,cytopathic effect,>200 µg/mL
Nc1c(N2CC[N+]3(CC2)CC[N+]2(CCN(c4nc[nH]c(=O)c4N)CC2)CC3)nc[nH]c1=O,B3,EC50,HeLa,cytopathic effect,>70 µg/mL
CON1CCc2c([nH]c3ccccc23)[C@@H]1[C@@H](N)CSC,TYPE B4,EC50,VERO,cytopathic effect,>40 µg/mL
NC(=S)c1cncc([C@@H]2O[C@H](CO)[C@@H](O)[C@@H]2O)c1,TYPE B4,EC50,VERO,cytopathic effect,≥100 µg/mL
Cc1ccc(C(=O)CCCCCCOc2ccc(C3=NC(C)CO3)cc2)s1,TYPE B5,EC50,VERO,cytopathic effect,>25.97 µM
COc1ccc(OCCCCCCn2ccnc2)c(Cl)c1,TYPE A,EC50,HeLa,plaque count,14.5 µM
C=CCc1nc(C)n2c(=O)[nH]cnc12,TYPE B4,EC50,HeLa,cytopathic effect,>400 µg/mL
COC(=O)n1c(C(=O)NC(C)C)nc2ccccc21,TYPE B2,EC50,VERO,cytopathic effect,95 µM
Cc1ccn2c(C3OCCS3)cnc2c1,TYPE B4,EC50,HeLa,-,>1000 µM
Nc1ncnc2c1ncn2[C@@H]1CC[C@@H](O)[C@H]1O,TYPE B4,MIC,-,-,>200 µg/mL
COCC1=C[C@@H](n2cnc3c(N)ncnc32)[C@H](O)[C@@H]1O,TYPE B4,EC50,VERO,cytopathic effect,>400 µg/mL
CC(C)Nc1ncnc2c1ncn2C1C[C@H](CO)[C@@H](CO)C1,B4,EC50,VERO,-,>100 µg/mL
CS(=O)(=O)c1ccc(Oc2ccc(C(=O)c3ccccc3)cc2)nc1,A21,EC50,HeLa,cytopathic effect,1.3 µg/mL
CCS(=O)(=O)c1ccc(NCc2ccc(Cl)c(Cl)c2)nc1C#N,TYPE A21,EC50,HeLa,cytopathic effect,2.5 µg/mL
Cc1ccc(C(=O)CCCCOc2ccc(C3=NCCO3)cc2)s1,TYPE B2,EC50,VERO,cytopathic effect,2.04 µM
CC(=O)Nc1nc2c(CC(O)CO)nc(C)n2c(=O)[nH]1,TYPE B4,EC50,HeLa,cytopathic effect,>400 µg/mL
Nc1ncnc2c1ncn2C1CC(CO)[C@@H](O)[C@H]1O,TYPE B4,EC50,HeLa,cytopathic effect,4 µg/mL
COC(=O)[C@]1(C)CCC[C@]2(C)c3cc4cc[nH]c4cc3CCC12,TYPE B4,EC50,HeLa,plaque count,>4 µg/mL
CSc1nsc(-c2ccc(OCCCOc3ccccc3)cc2)c1C#N,TYPE B1,EC50,HEP-2/L-929/VERO,plaque count,2.5 µM
C=C(N=CC)c1nc(-c2ccccc2)n(C2O[C@H](CO)[C@@H](O)[C@H](O)[C@H]2O)n1,TYPE B4,EC50,VERO,cytopathic effect,>200 µg/mL
CCn1nc(CC(=O)N/N=C/c2ccco2)nc1C,B4,MIC,-,-,>400 µg/mL
CC1(CO)CCC(Cn2nnc3c(=O)[nH]c(N)nc32)C1(C)C,TYPE B4,EC50,HeLa,cytopathic effect,>400 µg/mL
OC[C@H]1O[C@@H](c2cc(/C=C/Br)c(F)cc2F)C[C@@H]1O,TYPE B4,EC50,VERO,cytopathic effect,>16 µg/mL
CSc1nsc(-c2ccc(OCCCCOc3ccccc3)cc2)c1C#N,TYPE B1,EC50,HEP-2/L-929/VERO,plaque count,0.3 µM
CCC1COC(c2ccc(OCCCCC(=O)c3ccc(C)s3)cc2)=N1,TYPE B5,EC50,VERO,cytopathic effect,>26.95 µM
CS(=O)(=O)c1ccc(Cc2ccccc2)nc1,TYPE A21,EC50,HeLa,cytopathic effect,>10 µg/mL

10 of the rows above, restated:

compound	strain or isolate	endpoint	cell line	read by	value
Nc1ncnc2c1ncn2[C@@H]1CC[C@@H](O)[C@H]1O	TYPE B4	MIC	-	-	>200 µg/mL
C=C(N=CC)c1nc(-c2ccccc2)n(C2O[C@H](CO)[C@@H](O)[C@H](O)[C@H]2O)n1	TYPE B4	EC50	VERO	cytopathic effect	>200 µg/mL
Nc1ncnc2c1ncn2C1CC(COP(=O)(O)O)[C@@H](O)[C@H]1O	TYPE B4	EC50	HeLa	cytopathic effect	>10 µg/mL
CS(=O)(=O)c1ccc(Cc2ccccc2)nc1	TYPE A21	EC50	HeLa	cytopathic effect	>10 µg/mL
C=CCc1nc(C)n2c(=O)[nH]c(NC(C)=O)nc12	TYPE B4	EC50	HeLa	cytopathic effect	>400 µg/mL
CCn1nc(CC(=O)N/N=C/c2ccco2)nc1C	B4	MIC	-	-	>400 µg/mL
Cc1ccc(C(=O)CCCCCCOc2ccc(C3=NC(C)CO3)cc2)s1	TYPE B5	EC50	VERO	cytopathic effect	>25.97 µM
OC[C@H]1O[C@H](c2cncc(Br)c2)[C@@H](O)[C@H]1O	TYPE B4	EC50	VERO	cytopathic effect	≥100 µg/mL
Cc1cn([C@H]2O[C@H](CO)[C@@H](N=[N+]=[N-])[C@H]2F)c(=O)nc1N	TYPE B4	EC50	VERO B	cytopathic effect	>400 µg/mL
CS(=O)(=O)c1ccc(Cc2ccc(Cl)c(Cl)c2)nc1	TYPE A21	EC50	HeLa	cytopathic effect	5 µg/mL